Results of unrelated studies side by side (data: NIAID ChemDB).

Common to all: whole-cell or culture tests; organism: HIV-1; cells: H9; read-out: EC50

Lines come from different laboratories, so protocols vary. Blank or dashed fields: not listed here. ECn: concentration that inhibits the pathogen or its effect by n%.

compound	strain or isolate	mutations	read by	conditions	value
COc1cc([C@H]2OC[C@H]3[C@@H]2CO[C@@H]3c2ccc3c(c2)OCO3)cc(OC)c1OC	IIIB		syncytia		<10.6 µM
Nc1ncnc2c1ncn2CCOCP(=O)(O)O			antigen		0.4 µM
Nc1nc(=O)n([C@H]2CO[C@@H](CO)S2)cc1F	IIIB		p24		1 µM
CC[C@H](C)[C@H](NC(=O)[C@H](Cc1ccccc1)C[C@H](O)[C@H](Cc1ccccc1)NC(=O)OC(C)(C)C)C(=O)NCC(O)CO	IIIB		antigen		<1.5 µM
CC1(C)CC[C@]2(C(=O)O)CC[C@]3(C)C(=CC[C@@H]4[C@@]5(C)CC[C@H](OC(=O)CC(C)(C)C(=O)O)C(C)(C)[C@@H]5CC[C@]43C)[C@@H]2C1	IIIB		p24		0.0005 µg/mL
O=C(O[C@@H]1Cc2c(O)cc(O)cc2O[C@@H]1c1cc(O)c(O)cc1-c1c([C@H]2Oc3cc(O)cc(O)c3C[C@H]2OC(=O)c2cc(O)c(O)c(O)c2)cc(O)c(O)c1O)c1cc(O)c(O)c(O)c1	IIIB		p24		>50 µg/mL
Nc1ncnc2c1ncn2[C@H]1CC[C@@H](CO)O1	LAV		p24		<10 µM
Nc1ncnc2c1ncn2CCOCP(=O)(O)O	IIIB		antigen		0.4 µM
O[C@H]1OC[C@H](Cc2ccc3c(c2)OCO3)[C@H]1Cc1ccc2c(c1)OCO2	IIIB		syncytia		<12.7 µM
Cc1cn([C@H]2C[C@H](N=[N+]=[N-])[C@@H](CO)O2)c(=O)[nH]c1=O	IIIB		p24		0.012 µg/mL
CC12CCC[C@@]3(COC1=O)C1CC[C@@H]4C[C@@]1(CC[C@H]23)C[C@@]4(C)O	IIIB		p24		6 µM
Cc1cn([C@H]2CC[C@@H](CO)O2)c(=O)[nH]c1=O	LAV		p24		>100 µM
COc1cc(C[C@@]2(O)C(=O)OC[C@@H]2Cc2ccc(OC)c(OC)c2)ccc1O	IIIB		RT activity		~0.52 µM
COc1c(O)cc(C(=O)O[C@@H]2Cc3c(O)cc(O)cc3O[C@@H]2c2ccc(O)c(O)c2)cc1O	IIIB		p24		>50 µg/mL
CC(C)(C)OC(=O)N[C@@H](Cc1ccccc1)[C@@H](O)C[C@@H](Cc1ccc(OCCN2CCS(=O)CC2)cc1)C(=O)N[C@H]1c2ccccc2C[C@H]1O	IIIB		antigen		<0.2 µM
COc1ccc(S(=O)(=O)N(CC(C)C)C[C@@H](O)[C@H](Cc2ccccc2)NC(=O)O[C@H]2CO[C@H]3OCC[C@H]32)cc1	IIIB		p24		0.0007 µM
CC(C)(O)[C@H](O)COc1c2occc2cc2ccc(=O)oc12					0.115 µg/mL
C[C@]12CC[C@H]3[C@@H](CC=C4NC(=O)CC[C@@]43C)[C@@H]1CC[C@@H]2C(=O)O	IIIB		p24		3.85 µM
Cc1c(CBr)n2c(C[N+](C)(C)C)c(C)c(=O)n2c1=O.[Br-]	IIIB		p24		~300 µM
CC(C)C[C@H](NC(=O)[C@H](Cc1ccccc1)C[C@H](O)[C@H](Cc1ccccc1)NC(=O)OC(C)(C)C)C(=O)NCc1ccccc1	IIIB		antigen		<3 µM
CC1(C)CC[C@]2(C(=O)O)CC[C@]3(CO)C(=CCC4[C@@]5(C)CC[C@H](O)C(C)(C)C5CC[C@]43C)C2C1	IIIB		p24		4.4 µg/mL
CCCCCCCCOCCCCC(=O)O	IIIB		p24 / RT activity		>40 µM
CC(C)(C)OC(=O)N[C@@H](Cc1ccccc1)[C@@H](O)C[C@@H](Cc1ccc(OCCN2CCSCC2)cc1)C(=O)N[C@H]1c2ccccc2C[C@H]1O	IIIB		antigen		<0.05 µM
OCCc1ccc(O)c(O)c1	IIIB		p24		0.068 µM
CC(C)Nc1cccnc1N1CCN(C(=O)c2cc3cc(NS(C)(=O)=O)ccc3[nH]2)CC1	B9 (RT L100I V106A G190A)	RT-L100I V106A G190A	p24		>10 µg/mL
CC1(C)CC[C@]2(C(=O)O)CC[C@]3(C)C(=CCC4[C@@]5(C)CC[C@H](OC(=O)C(C)(C)CC(=O)O)C(C)(C)C5CC[C@]43C)C2C1	IIIB		p24		1.5 µg/mL
COc1cc([C@@H]2c3cc4c(cc3[C@@H](O[C@@H]3O[C@@H]5CO[C@@H](C)O[C@H]5[C@H](O)[C@H]3O)[C@H]3COC(=O)[C@H]23)OCO4)cc(OC)c1O	IIIB		p24		0.03 µM
CC(C)=CCC[C@@]1(C)[C@@H]2CC[C@]3(C)Oc4cc(C)c(C(=O)O)c(O)c4[C@H]1[C@H]23	IIIB		p24 / ELISA		0.37 µg/mL
CCCCCCCCCCCCCCCCO[C@H](CCl)COP(=O)(O)OCC[N+](C)(C)C	IIIB		RT activity		<1 µM
Nc1ccn([C@@H]2CO[C@H](CO)S2)c(=O)n1	IIIB		p24		0.08 µM
c1ccc([C@H]2CN3CCSC3=N2)cc1	IIIB		XTT / p24		0.1 µM
O=C(O[C@H](Cc1c(O)cc(O)cc1O)[C@@H](c1cc(O)c(O)c(O)c1)c1c(O)cc(O)c2c1O[C@H](c1cc(O)c(O)c(O)c1)[C@H](OC(=O)c1cc(O)c(O)c(O)c1)C2)c1cc(O)c(O)c(O)c1	IIIB		p24		>8 µg/mL
COc1ccc2ccc(=O)oc2c1CC=C(C)C					0.155 µg/mL
CC1(C)CC[C@]2(C(=O)O)CC[C@]3(C)C(=CCC4[C@@]5(C)CCC(=O)C(C)(C)C5CC[C@]43C)C2C1	IIIB		p24		0.11 µg/mL
O=c1c(O)cc([C@H]2Oc3cc(O)cc(O)c3C[C@H]2O)cc2c([C@H]3Oc4cc(O)cc(O)c4C[C@H]3O)cc(O)c(O)c12	IIIB		p24		>48 µg/mL
C[C@@H]1CC[C@]2(C(=O)O)CC[C@]3(C)C(=CCC4[C@@]5(C)CC(=O)[C@H](O)C(C)(C)C5CC[C@]43C)C2[C@]1(C)O	IIIB		p24		20 µg/mL
O=C(O[C@@H]1[C@@H](c2c(O)cc(O)c3c2O[C@H](c2cc(O)c(O)c(O)c2)[C@H](OC(=O)c2cc(O)c(O)c(O)c2)C3)c2c(O)cc(O)cc2O[C@@H]1c1cc(O)c(O)c(O)c1)c1cc(O)c(O)c(O)c1	IIIB		p24		>40 µg/mL
COc1ccc2c(c1)N(C(=O)OC(C)C)[C@@H](CSC)C(=S)N2	B8 (RT K101I K103N Y181C G190A)	RT-K101I K103N Y181C G190A	p24		>10 µg/mL
CC(C)(C)OC(=O)NCCC(=O)Nc1cccc(C(c2c(O)c3c(oc2=O)CCCCCC3)C2CC2)c1	IIIB		cytopathic effect / MTT		57 µM
Cc1cn([C@H]2C[C@H](N=[N+]=[N-])[C@@H](CO)O2)c(=O)[nH]c1=O	IIIB		p24 / ELISA		0.045 µM
CN1CCN(CCOc2ccc(C[C@H](C[C@H](O)[C@H](Cc3ccccc3)NC(=O)OC(C)(C)C)C(=O)N[C@H]3c4ccccc4C[C@H]3O)cc2)CC1	IIIB		p24		<0.1 µM
Nc1ccn([C@H]2CC[C@@H](CO)O2)c(=O)n1	LAV		p24		<10 µM
CC(C)=CCOc1c2occc2cc2ccc(=O)oc12					<0.1 µg/mL
CC(=O)OCOP(=O)(OCOC(C)=O)C(=O)Oc1ccccc1	IIIB		cytopathic effect / MTT		>150 µM
O=C(O)P(=O)(O)O			ELISA	2 d	10 µg/mL
CCC[C@@]1(CCc2ccccc2)CC(O)=C([C@H](CC)c2cccc(NS(=O)(=O)c3ccc(C(F)(F)F)cn3)c2)C(=O)O1	IIIB		p24		<0.16 µM
COc1c(O)c(Br)c2c(c1OC)-c1c(c(Br)c(O)c(OC)c1OC)C[C@H](C)[C@H](C)C2	IIIB		p24		0.13 µM
COc1ccc(/C=C(\C#N)c2nc3ccccc3[nH]2)cc1O			p24 / ELISA		0.0686 µM
Cc1cn([C@H]2C[C@H](N=[N+]=[N-])[C@@H](CO)O2)c(=O)[nH]c1=O					0.0007 µg/mL
CC(C)=CCC/C(C)=C/C[N+]1(C/C=C(\C)CCC=C(C)C)CCc2cc(O)c(O)cc2[C@H]1C			MTT		>2.5 µg/mL
CC(C)(O)C(O)COc1c2ccoc2cc2oc(=O)ccc12					10 µg/mL
CC(C)(C)OC(=O)N[C@@H](Cc1ccccc1)[C@@H](O)C[C@@H](Cc1ccc(OCC(=O)N2CCOCC2)cc1)C(=O)N[C@H]1c2ccccc2C[C@H]1O	IIIB		p24		<0.05 µM
CC[C@H](C)[C@H](NC(=O)[C@H](Cc1ccccc1)C[C@H](O)[C@H](Cc1ccccc1)NC(=O)OC(C)(C)C)C(=O)NCc1ccccc1	IIIB		antigen		<1.5 µM
COc1c(O)c(I)c2c(c1OC)-c1c(c(I)c(O)c(OC)c1OC)C[C@H](C)[C@H](C)C2	IIIB		p24		0.06 µM
COc1ccc(C[C@H]2COC(=O)[C@@H]2Cc2ccc(O[C@@H]3O[C@H](CO)[C@@H](O)[C@H](O)[C@H]3O)c(OC)c2)cc1OC	IIIB		RT activity		<5 µM

For reference, 7 entries again:

| compound | strain or isolate | mutations | read by | conditions | value |
|---|---|---|---|---|---|
| COc1cc([C@H]2OC[C@H]3[C@@H]2CO[C@@H]3c2ccc3c(c2)OCO3)cc(OC)c1OC | IIIB |  | syncytia |  | <10.6 µM |
| CCCCCCCCCCCCCCCCO[C@H](CCl)COP(=O)(O)OCC[N+](C)(C)C | IIIB |  | RT activity |  | <1 µM |
| COc1c(O)c(I)c2c(c1OC)-c1c(c(I)c(O)c(OC)c1OC)C[C@H](C)[C@H](C)C2 | IIIB |  | p24 |  | 0.06 µM |
| CC[C@H](C)[C@H](NC(=O)[C@H](Cc1ccccc1)C[C@H](O)[C@H](Cc1ccccc1)NC(=O)OC(C)(C)C)C(=O)NCc1ccccc1 | IIIB |  | antigen |  | <1.5 µM |
| CC1(C)CC[C@]2(C(=O)O)CC[C@]3(CO)C(=CCC4[C@@]5(C)CC[C@H](O)C(C)(C)C5CC[C@]43C)C2C1 | IIIB |  | p24 |  | 4.4 µg/mL |
| Cc1c(CBr)n2c(C[N+](C)(C)C)c(C)c(=O)n2c1=O.[Br-] | IIIB |  | p24 |  | ~300 µM |
| CC(=O)OCOP(=O)(OCOC(C)=O)C(=O)Oc1ccccc1 | IIIB |  | cytopathic effect / MTT |  | >150 µM |